Data reported in the supplement of paper PMC9931576.
Numbering of substitutions follows the chain as printed. Human monoclonal antibodies against the spike receptor-binding domain (heavy:light variable regions). IC50 against pseudoviruses bearing the spike of naturally observed variants; lower = stronger; >10 µg/ml means not reached at the top dose. No active / inactive call. The stated detection limit is 0.0005 µg/ml; values near or below 0.001 µg/ml lie at the floor of the assay.

B1: XGv-008 (protein)
chain 1: QLQLQESGPGLVKPSETLSLTCTVSGGSISSSRYYWGWIRQPPGKGLEWIGSLYYSGGTYFNPSLKSRVTISVDTSKNQFSLKLTSVTAADTAVYYCARDHYGDYALVYWGQGTLVTVSS
chain 2: QSVLTQPPSVSGAPGQRVTISCTGSSSNIGAGYDVHWYQQLPGTAPKLLIYGHNNRPSGVPDRFSGSQSGTSASLAITGLQAEDEADYYCQSYDTSLSALYVFGTGTKVTVL
B2: XGv-052 (protein)
chain 1: QVQLVQSGAEVKKPGSSVKVSCKASGGTFSNYALSWVRQAPGQGLEWMGGIIPIFGTTNYAQNFQGRVTITADESTSTAYMELSSLRSEDTAVYYCARLDGYSFGHNRYYQDGMDDWGQGTTVTVSS
chain 2: DIQMTQSPSSLSASVGDRVTITCRASQAIRSDLGWYQQKPGKAPKCLIYAASTLQSGVPSRFSGSGSGTEFTLTISSLQPEDFATYYCLQQNIYPRTFGQGTKVEI
B3: XGv-053 (protein)
chain 1: B2 chain 1 with N31S, S35T, N63K, S84T
chain 2: DIQMTQSPSSLSASVGDRVTITCRASQDIRNDLGWYQQKPGKAPKCLIYAASTLQSGVPSRFSGSGSGTEFTLTISSLQPEDFATYYCLQQNIYPRTFGQGTKVEIK
B4: XGv-159 (protein)
chain 1: QVQLVQSGAEMKKPGASVKVSCKASGYTFSNYGINWVRQAPGRGLEWMGWISGYNGNTKYAQKLQGRVTMTTDTSTTTAYMELRSLRSDDTAVYYCARTLGLWFGVDNWGQGTLVTVSS
chain 2: NFMLTQPHSVSESPGKTVTISCTGSSGSIASNYVQWYQQRPGSAPTTVIYEDKQRPSGVPDRFSGSIDSSSNSASLTISGLKTEDESDYYCQSYDGSSVIFGGGTKLTVL
B5: XGv-011 (protein)
chain 1: QVQLVESGGGVVQPGRSLRLSCAASGFIFSSYVLHWVRQAPGKGLEWVALISYDGRRQYYADSVKGRFTISRANANNTLFLQMNSLRTEDTAVYYCTTGDDPYRSAWYTQFDYWGQGALVTVSS
chain 2: QSVLTQPPSASGTPGQKVTISCSGSSSNIGSNSVNWYQQVPGTAPKLLIYDNTQRPSGVPDRFSGSKSATSASLAISGLQSHDEADYYCAAWDDSLHVVFGGGTKLTVL
B6: XGv-097 (protein)
chain 1: QVQLVQSGSELKKPGASVKVSCKASGYIFTSPAMNWVRQAPGQGLEWMGWINTNTGNPTYAQGFTGRFVFSLDTSVSTAYLQISSLKAEDTAVYYCARGMTTVVTYYYYGMDVWGQGTTVTVSS
chain 2: DIQMTQSPSSLSASVGDRVTITCRASQGISSWLAWYQQKPGKAPKLLIYAASSLQSGVPSRFSGSGSGTDFTLTISSLQPEDFATYYCQQANSFPPTFGQGTKVEIK
B7: XGv-003 (protein)
chain 1: QVQLVQSGAEVKRPGSSVKVSCKASGGTFRNYAINWVRQAPGQGLEWMGGIIRLFDRTDYAQKFQGRITIIADEDTNTAYMELRSLRSEDTGVYYCARGRALTRGILATMTVDVWGQGTTVTVSS
chain 2: DIVMTQSPDSLAVSLGERATINCKSSQSLLYSSNNKNFLGWSQQKPGQPPKLLIYWASTRESGVPDRFSGSGSGTDFTLTISSLQPEDVAIYYCHQYYSIPLTFGGGTKVEIK
B8: XGv-155 (protein)
chain 1: B7 chain 1
chain 2: B7 chain 2
B9: XGv-072 (protein)
chain 1: QVQLVESGGGVVQPGRSLRLSCAASGFTFSNYGMHWVRQAPGKGLEWVALIWYDGTNKYYADSVKGRFTISRDNSKNTVYLQMNSLRAEDTAVYYCARDYEITMAAPDYWGQGTLVTVSS
chain 2: DVVMTQSPLSLPVTLGQPASISCRSSQSLVSSDGNTYLNWFQQRPGQSPRRLIYKVSNRDSGVPDRFSGSGSGTDFTLKISRVEAEDVGIYYCMQGSHWPPTFGGGTKVEIK
B10: XGv-19 (protein)
chain 1: EVQLVESGGGLVQPGGSLRLSCGASGFSLSNYDIHWVRQATGEGLEWVSCVGTYGDTYYSDSVKGRFTISRENARNSLYLQMNSLRLGDTAVYFCTRGSVDPTTNWYFDLWGRGTLVTVSS
chain 2: DIQMTQSPSSLSASVGDRVTITCRASQGIRNFLAWYQQKPGKAPKLLLSAASRLESGVPSRFSGSGSGTDYTLTISSLQPEDFATYYCQQYYSSPPITFAQGTRLEIK
B11: XGv-023 (protein)
chain 1: EVQLVESGGDLVQPGGSLRLSCAASGFTFGSYDMHWVRQHTGKGLEWVSAIGTAGDTYYADSVKGRFIISRDNAKNSMYLQMTSLRAGDSALYYCARGGIVGYTYGNWYFDIWGRGSLVTVSP
chain 2: DIQMTQSPSSLTASVGDRVTITCRASQTISNYLNWYQHKPGKAPKLLIYAASSLESGVPSRFTGSGSGTDFTLTISSLQPEDFATYYCQQSYTMPPITFGQGTRLEIK
B12: XGv-179 (protein)
chain 1: QVQLQESGPGLVKPSETLSLTCSVSGDSMSGYYWSWIRQPPGKGLEWIGYIYYSGSTKYTPSLKSRVTISVDTSKNQFSLKLNSVTAADTAVYYCAKEGTQGYFDSWGLGALVTVSS
chain 2: EIVLTQSPGTLSLSPGERATLSCRASQSLYSRYLAWYQQNPGQAPRLLIYGASSRATGIPDRFSGSGSGTDFTLTISRLEPEDFAVYYCHQYGGSLPTFGGGTKVEIK
B13: XGv-013 (protein)
chain 1: EVQLVESGGGLVQPGGSLRLSCAASGITVSSNYMTWVRQAPGKGLEWVSVIYAGGSTFYADSVKGRFTISRDNSKNTLYLQMNSLRVEDTAVYYCARDLVDYGMDVWGQGTTVTVSS
chain 2: DIQLTQSPSFLSASVGDRVTITCRASQGIASYLAWYQQKPGKAPKLLIYAASTLQSGVPTRFSGSGSGTEFTLTIRSLQPEDSATYYCQHPSGHPPTFGGGTKVEI

Biological target: SARS-CoV-2 Omicron BA.1 spike pseudovirus
Experiment: pseudovirus neutralization IC50; higher = weaker neutralization
Description: (§1)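 Single-round VSV luciferase pseudovirus mixed with antibody dilutions for 1 h and put on Huh-7 cells for about a day; IC50 from the dose curve.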

Row | Binder | pseudovirus neutralization IC50
1 | B1 | > 10 µg/mL
2 | B2 | 0.0145 µg/mL
3 | B3 | 0.617 µg/mL
4 | B4 | > 10 µg/mL
5 | B5 | 0.593 µg/mL
6 | B6 | 1.27 µg/mL
7 | B7 | > 10 µg/mL
8 | B8 | 1.43 µg/mL
9 | B9 | 2.05 µg/mL
10 | B10 | > 10 µg/mL
11 | B11 | > 10 µg/mL
12 | B12 | 2.01 µg/mL
13 | B13 | 0.00558 µg/mL

Biological target: SARS-CoV-2 Omicron BA.2 spike pseudovirus
Experiment: as above
Description: as §1

Row | Binder | pseudovirus neutralization IC50
14 | B1 | > 10 µg/mL
15 | B2 | 0.00956 µg/mL
16 | B3 | 0.00568 µg/mL
17 | B4 | > 10 µg/mL
18 | B5 | 0.625 µg/mL
19 | B6 | 1.69 µg/mL
20 | B7 | > 10 µg/mL
21 | B8 | 1.2 µg/mL
22 | B9 | 2.08 µg/mL
23 | B10 | > 10 µg/mL
24 | B11 | > 10 µg/mL
25 | B12 | 1.82 µg/mL
26 | B13 | 0.001 µg/mL

Biological target: SARS-CoV-2 Omicron BA.2.75 spike pseudovirus
Experiment: as above
Description: as §1

Row | Binder | pseudovirus neutralization IC50
27 | B1 | > 10 µg/mL
28 | B2 | 0.00619 µg/mL
29 | B3 | 0.0134 µg/mL
30 | B4 | > 10 µg/mL
31 | B5 | 0.794 µg/mL
32 | B6 | 1.79 µg/mL
33 | B7 | > 10 µg/mL
34 | B8 | 1.78 µg/mL
35 | B9 | 1.55 µg/mL
36 | B10 | > 10 µg/mL
37 | B11 | > 10 µg/mL
38 | B12 | 1.5 µg/mL
39 | B13 | 0.427 µg/mL

Biological target: SARS-CoV-2 Omicron BA.5 spike pseudovirus
Experiment: as above
Description: as §1

Row | Binder | pseudovirus neutralization IC50
40 | B1 | > 10 µg/mL
41 | B2 | 0.828 µg/mL
42 | B3 | 4.31 µg/mL
43 | B4 | > 10 µg/mL
44 | B5 | 3.51 µg/mL
45 | B6 | 1.19 µg/mL
46 | B7 | > 10 µg/mL
47 | B9 | 2.15 µg/mL
48 | B10 | > 10 µg/mL
49 | B11 | > 10 µg/mL
50 | B12 | 0.991 µg/mL
51 | B13 | 0.0446 µg/mL

Biological target: SARS-CoV-2 Omicron BQ.1.1 spike pseudovirus
Experiment: as above
Description: as §1

Row | Binder | pseudovirus neutralization IC50
52 | B1 | > 10 µg/mL
53 | B2 | 1.02 µg/mL
54 | B3 | > 10 µg/mL
55 | B4 | > 10 µg/mL
56 | B5 | > 10 µg/mL
57 | B6 | 1.44 µg/mL
58 | B7 | > 10 µg/mL
59 | B9 | > 10 µg/mL
60 | B10 | > 10 µg/mL
61 | B11 | > 10 µg/mL
62 | B12 | > 10 µg/mL
63 | B13 | > 10 µg/mL

Biological target: SARS-CoV-2 Omicron XBB spike pseudovirus
Experiment: as above
Description: as §1

Row | Binder | pseudovirus neutralization IC50
64 | B1 | > 10 µg/mL
65 | B2 | > 10 µg/mL
66 | B3 | 6.73 µg/mL
67 | B4 | > 10 µg/mL
68 | B5 | > 10 µg/mL
69 | B6 | > 10 µg/mL
70 | B7 | > 10 µg/mL
71 | B9 | 5.11 µg/mL
72 | B10 | > 10 µg/mL
73 | B11 | > 10 µg/mL
74 | B12 | > 10 µg/mL
75 | B13 | > 10 µg/mL

Biological target: SARS-CoV-2 early D614G spike pseudovirus
Experiment: as above
Description: as §1

Row | Binder | pseudovirus neutralization IC50
76 | B1 | 1.48 µg/mL
77 | B2 | 0.0112 µg/mL
78 | B3 | 0.0325 µg/mL
79 | B4 | 0.64 µg/mL
80 | B5 | 0.0254 µg/mL
81 | B6 | 0.0551 µg/mL
82 | B7 | 0.561 µg/mL
83 | B8 | 0.0255 µg/mL
84 | B9 | 2.15 µg/mL
85 | B10 | 6.23 µg/mL
86 | B11 | > 10 µg/mL
87 | B12 | 1.12 µg/mL
88 | B13 | 0.00851 µg/mL
